Results of unrelated studies side by side (data: NIAID ChemDB).

All rows: cytotoxicity tests; endpoint: CC50

CCn is the concentration with n% toxicity to the cells. An empty or dashed field is not shown. Rows are shuffled and stem from different studies. Two numbers with a dash give a range or band.

structure	read by	setting	cells	value
CN1C(=O)Cc2cc(C(=O)CN3CCN(c4ccccn4)CC3)ccc21	MTT		RAW 264.7	130 µg/mL
CC(C)c1nc(CN(C)C(=O)N[C@H](C(=O)N[C@@H](Cc2ccccc2)C[C@H](O)[C@H](Cc2ccccc2)NC(=O)OCc2cncs2)C(C)C)cs1			EPG85-257P	80 µM
O=C(Nc1cccc2cccnc12)c1ccc(F)cc1F	ATP		H9	48 µM
CC1=CC2C(=O)c3cc(OC/C(=N/NC(N)=O)c4ccccc4)cc(O)c3C(=O)C2C(O)=C1			K562 erythroleukemia cells	100 µM
O=c1[nH]c(=O)n([C@@H]2O[C@H](CO)[C@@H](O)[C@@H]2O)cc1/C=C/I			HELF	>800 µg/mL
CCN(CC)Cc1cnc2c(C(=O)Nc3ccc4[nH]ncc4c3)cnn2c1	MTT		293T	>20 µM
CN1C(=O)Cc2cc(C(=O)CN3CCN(c4noc5cc(Cl)ccc45)CC3)ccc21	MTT		RAW 264.7	58.41 µg/mL
CCOC(=O)COc1ccc(C(O)O)cc1			RAJI	>20 µM
C=C(C)[C@@H]1CC[C@]2(C(=O)N[C@@H](Cc3ccccc3)[C@H](O)CN(CC(C)C)S(=O)(=O)c3ccc(OC)cc3)CC[C@]3(C)[C@H](CC[C@@H]4[C@@]5(C)CC[C@H](O)C(C)(C)[C@@H]5CC[C@]43C)[C@@H]12	absorbance		HUVEC	>100 µM
COC(=O)N[C@H](C(=O)N[C@H](CCC[C@@H](CO)N(CCC(C)C)S(=O)(=O)c1ccc(CO)cc1)C(C)(C)C)C(c1ccccc1)c1ccccc1	microscopy		T lymphoid cells	>10 µM
OCC12C(c3ccccc3)C3(CO)C4N(Cc5ccccc5)C1C1(CO)C(C5C=CC=CC5)C4(CO)C3N(Cc3ccccc3)C21			EPG85-257P	80 µM
CN1C(=O)Cc2cc(C(=O)CN3CCN(c4noc5ccccc45)CC3)ccc21	MTT		RAW 264.7	70.18 µg/mL
O=S(=O)(Nc1ncnc2nc[nH]c12)c1ccc(F)cc1F	ATP		H9	>20 µM
CC(C)N(Cc1cccc(OCCCCCC(=O)OC(=O)O)c1)C(=O)c1ccc(-c2ccc(Cl)c(Cl)c2)cc1			BJ	>20 µM
C=Cc1cn([C@@H]2O[C@H](CO)[C@@H](O)[C@@H]2O)c(=O)[nH]c1=O			HELF	650 µg/mL
CCN1C(=O)Cc2cc(C(=O)CN3CCN(c4ccc([N+](=O)[O-])cc4)CC3)ccc21	MTT		RAW 264.7	61.88 µg/mL
COc1ccc2c(c1)c(Sc1ccc(N)cc1)cc(=O)n2C			Huh-Luc-Neo	10–100 µM
Cn1cc(C(=O)O)c(=O)c2cc(F)c(N3CC=C(c4ccccc4)CC3)c(C(F)(F)F)c21			MOLT-4	3.9 µM
COC(=O)N[C@@H](Cc1ccccc1Cl)C(=O)N[C@@H](C)CCC[C@@H](CO)N(CC(C)C)S(=O)(=O)c1ccc(N)cc1	microscopy		T lymphoid cells	>10 µM
CC(C)CN(C[C@@H](O)[C@H](Cc1ccccc1)NC(=O)[C@]12CC[C@@H](C)[C@H](C)[C@H]1C1=CC[C@@H]3[C@@]4(C)CC[C@@H](O)C(C)(C)[C@@H]4CC[C@@]3(C)[C@]1(C)CC2)S(=O)(=O)c1ccc(N)cc1	absorbance		HUVEC	>100 µM
Cc1cn(C2C[C@H](N=[N+]=[N-])[C@@H](COP(=O)(Nc3cc(C(=O)Nc4cc(C(=O)Nc5cc(C(=O)NCCC#N)n(C)c5)n(C)c4)n(C)c3)OC(C)C)O2)c(=O)[nH]c1=O	MTT		CEM/TK-	177 µM
COC(=O)N[C@H](C(=O)N[C@H](CCC[C@@H](CO)N(C)S(=O)(=O)c1ccc(N)cc1)C1CC1)C(c1ccccc1)c1ccccc1	microscopy		T lymphoid cells	>10 µM
C=Cc1cn([C@@H]2O[C@H](CO)[C@@H](O)[C@@H]2F)c(=O)[nH]c1=O			HELF	11 µg/mL
CC(C)CN(C[C@@H](O)[C@H](Cc1ccccc1)NC(=O)[C@]12CC[C@@H](C)[C@H](C)[C@H]1C1=CC[C@@H]3[C@@]4(C)C[C@@H](O)[C@@H](O)[C@@](C)(CO)[C@@H]4CC[C@@]3(C)[C@]1(C)CC2)S(=O)(=O)c1ccc([N+](=O)[O-])cc1	absorbance		HUVEC	>100 µM
Cn1c(=O)cc(Sc2cccc(F)c2)c2ccccc21			Huh-Luc-Neo	>100 µM
CC1=CC2C(=O)c3cc(O)cc(O)c3C(=O)C2C(O)=C1			K562 erythroleukemia cells	35 µM
CCCN([C@H](CO)CCC[C@H](CC)NC(=O)[C@@H](NC(=O)OC)C(c1ccccc1)c1ccccc1)S(=O)(=O)c1ccc(N)cc1	microscopy		T lymphoid cells	>10 µM
Cn1c(=O)cc(Sc2ccc(NC(=O)[C@@H](NC(=O)OC(C)(C)C)C3CCCCC3)cc2)c2ccccc21			Huh-Luc-Neo	>100 µM
CCOC(=O)c1c(CSc2ccccc2)n(C)c2cc(Br)c(O)c(CN(C)C)c12	absorbance	5 d	HepAD38	>10 µM
Cc1cc2c(Sc3ccc(N)cc3)cc(=O)n(C)c2cc1C			Huh-Luc-Neo	>100 µM
CC1C(=O)N(C)c2ccc(C(=O)CN3CCN(c4noc5c(Cl)cccc45)CC3)cc21	MTT		RAW 264.7	86.44 µg/mL
CCc1cn([C@H]2C[C@H](O)[C@@H](CO)O2)c(=O)[nH]c1=O			HELF	40 µg/mL
O=S(=O)(Nc1cccc2cccnc12)c1ccc(C(F)(F)F)cc1	ATP		H9	5.1 µM
COc1ccc(Sc2cc(=O)n(C)c3ccccc23)cc1			Huh-Luc-Neo	>100 µM
CCN1C(=O)Cc2cc(C(=O)CN3CCN(c4noc5cccc(Cl)c45)CC3)ccc21	MTT		RAW 264.7	70.18 µg/mL
C=CCCC(=O)NC[C@H](O)c1ccc2c(c1)OCO2			BJ	<7.5 µM
Cn1c(=O)cc(Sc2ccc(F)cc2)c2ccccc21			Huh-Luc-Neo	>100 µM
O=S(=O)(Nc1ccccc1)c1ccc(F)cc1F	ATP		H9	>20 µM
CC1C(=O)N(C)c2ccc(C(=O)CN3CCN(c4noc5ccccc45)CC3)cc21	MTT		RAW 264.7	110 µg/mL
CCOC(=O)CCCCCOc1cccc(CN(C(=O)c2ccc(-c3ccc4ccccc4c3)cc2)C(C)C)c1			RAJI	>20 µM
Nc1nc2c(ncn2/C=C2/CC2(CO)CO)c(=O)[nH]1			MEF	>404 µM
O=S(=O)(Nc1cccc2cccnc12)c1ccc(Cl)cc1Cl	ATP		H9	0.47 µM
COC(=O)Cc1cn([C@H]2C[C@H](O)[C@@H](CO)O2)c(=O)[nH]c1=O			HELF	400 µg/mL
COC(=O)N[C@H](C(=O)N[C@@H](C)CCC[C@@H](CO)N(C1CCC1)S(=O)(=O)c1ccc(CO)cc1)C(c1ccccc1)c1ccccc1	microscopy		T lymphoid cells	>10 µM

The first 5 rows once more:

structure	read by	setting	cells	value
CN1C(=O)Cc2cc(C(=O)CN3CCN(c4ccccn4)CC3)ccc21	MTT		RAW 264.7	130 µg/mL
CC(C)c1nc(CN(C)C(=O)N[C@H](C(=O)N[C@@H](Cc2ccccc2)C[C@H](O)[C@H](Cc2ccccc2)NC(=O)OCc2cncs2)C(C)C)cs1			EPG85-257P	80 µM
O=C(Nc1cccc2cccnc12)c1ccc(F)cc1F	ATP		H9	48 µM
CC1=CC2C(=O)c3cc(OC/C(=N/NC(N)=O)c4ccccc4)cc(O)c3C(=O)C2C(O)=C1			K562 erythroleukemia cells	100 µM
O=c1[nH]c(=O)n([C@@H]2O[C@H](CO)[C@@H](O)[C@@H]2O)cc1/C=C/I			HELF	>800 µg/mL